Data source: PubChem BioAssay AID624099 (ICCB-Longwood, 2012)
The deposit covers about 21,000 reagents; below is a part drawn at random. In the full data, 497 (2.4%) are marked active. 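Higher z means weaker E2 silencing; only reporter increases were scored, and knock-downs that hurt cell survival may mask genuine repressor factors.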 No sequences are given here.

- Screen: 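Human genes that papillomavirus E2 requires to repress the HPV18 LCR promoter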 (primary screen)
- Cells: human C33A cervical carcinoma cells (HPV-negative) stably expressing BPV1 E2 and an HPV18 LCR luciferase reporter
- Knock-down reagent: siRNA pool against human genes, 40 nM
- Time to read-out: 72 h
- Measured: 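Per-well luciferase luminescence, z-scored on each plate against the plate mean and SD with control wells left out, then averaged across three replicate plates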
- Scale: mean z-score and z-score: higher = stronger reporter signal, weaker E2 silencing
- Active means: 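Mean z ≥ 2 together with z ≥ 2 in two or more of the three replicates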

| gene knocked down | mean z-score | z-score, replicate A | z-score, replicate B | z-score, replicate C | call |
| --- | --- | --- | --- | --- | --- |
| RCL1 | -0.43 | -0.25 | -0.39 | -0.64 | inactive |
| ADAD2 | 2.15 | 1.62 | 2.03 | 2.79 | active |
| STRADB | 1.73 | 1.79 | 1.52 | 1.88 | inactive |
| LOC345378 (retired record) | 0.33 | -0.04 | 0.63 | 0.41 | inactive |
| RWDD2A | 1.06 | 1.03 | 0.92 | 1.22 | inactive |
| CORO7 | 0.25 | 0.4 | 0.2 | 0.14 | inactive |
| POP7 | -0.19 | 0.57 | -0.52 | -0.61 | inactive |
| CCL4L1 | -0.95 | -1.27 | -0.69 | -0.88 | inactive |
| FAM114A1 | 0.26 | 0.14 | 0.51 | 0.14 | inactive |
| RYR3 | 0.44 | 0.31 | 0.34 | 0.66 | inactive |
| SPACA5 | 0.01 | 0 | 0.2 | -0.16 | inactive |
| ZBTB16 | -0.62 | -0.61 | -0.6 | -0.64 | inactive |
| BRCC3 | 0.06 | 0.4 | -0.18 | -0.04 | inactive |
| DORIP1 | 0.04 | 0.12 | 0.19 | -0.2 | inactive |
| LOC389665 (retired record) | 0.24 | 0.23 | 0.2 | 0.27 | inactive |
| MAML3 | -0.76 | -0.93 | -0.99 | -0.36 | inactive |
| PHLDB3 | -1.56 | -1.67 | -1.37 | -1.64 | inactive |
| GALNT17 | 0.17 | 0.36 | -0.11 | 0.25 | inactive |
| LINC02595 | 0.12 | 0.03 | 0.34 | -0.02 | inactive |
| GK2 | 1.53 | 1.74 | 1.37 | 1.49 | inactive |
| ZNF135 | -0.16 | -0.08 | -0.18 | -0.22 | inactive |
| LOC389988 (retired record) | -0.92 | -0.81 | -1.24 | -0.71 | inactive |
| COQ6 | -0.27 | -0.51 | 0.12 | -0.44 | inactive |
| ZNF521 | 0.59 | 0.67 | 0.52 | 0.57 | inactive |
| H2BC13 | -1.39 | -1.04 | -1.79 | -1.33 | inactive |
| LOC402095 (retired record) | -0.6 | -0.53 | -1.03 | -0.24 | inactive |
| IFT20 | -0.52 | -0.25 | -0.65 | -0.66 | inactive |
| RPL31P51 | 0.3 | 0.32 | 0.92 | -0.35 | inactive |
| KCNQ2 | -0.1 | -0.34 | 0.04 | 0 | inactive |
| ZC3H10 | 0.31 | 0.38 | 0.22 | 0.33 | inactive |
| PRB3 | -0.41 | -0.44 | -0.33 | -0.46 | inactive |
| SNRPD3 | -0.79 | -0.79 | -0.71 | -0.86 | inactive |
| IFNAR1 | -0.15 | -0.24 | -0.18 | -0.04 | inactive |
| CYP4F12 | -2.19 | -2.13 | -2.53 | -1.92 | inactive |
| SEPHS1P7 | 0.45 | 0.57 | 0.47 | 0.3 | inactive |
| ZNF597 | 1.07 | 1.5 | 0.6 | 1.11 | inactive |
| DTWD1 | -0.26 | -0.46 | -0.16 | -0.17 | inactive |
| GLOD4 | 0.35 | 0.03 | 0.57 | 0.45 | inactive |
| MRFAP1 | -0.86 | -0.64 | -0.93 | -1 | inactive |
| SLC43A1 | 1.65 | 1.43 | 1.84 | 1.68 | inactive |
| RLF | -0.63 | -0.74 | -0.45 | -0.7 | inactive |
| HCG27 | -0.47 | -0.25 | -0.97 | -0.19 | inactive |
| RABL3 | 0.56 | 0.58 | 0.58 | 0.53 | inactive |
| LOC729902 (retired record) | 0.33 | 0.13 | 0.56 | 0.29 | inactive |
| PPP4R4 | -1.2 | -1.33 | -1.17 | -1.1 | inactive |
| LINC01854 | -0.19 | -0.09 | -0.45 | -0.03 | inactive |
| LOC401356 (retired record) | -0.81 | -0.95 | -0.43 | -1.04 | inactive |
| NUP35 | 0.84 | 1.1 | 0.79 | 0.63 | inactive |
| NPIPB6 | -0.57 | -0.84 | -0.41 | -0.46 | inactive |
| FBXL15 | 1.03 | 1.13 | 0.66 | 1.3 | inactive |
| HNRNPDL | 0.93 | 0.94 | 1 | 0.85 | inactive |
| CIAO2B | -0.57 | -0.27 | -0.77 | -0.68 | inactive |
| ANAPC13 | -0.71 | -0.65 | -0.75 | -0.74 | inactive |
| LRGUK | -0.91 | -1.08 | -0.97 | -0.69 | inactive |
| ZNF616 | -0.01 | -0.11 | 0.27 | -0.19 | inactive |
| WWP1 | -0.29 | -0.2 | -0.45 | -0.21 | inactive |
| SLC25A13 | 0.33 | 0.59 | 0.12 | 0.27 | inactive |

Ordered by “z-score, replicate B” (lowest first): 3 of the entries above.
| gene knocked down | mean z-score | z-score, replicate A | z-score, replicate B | z-score, replicate C | call |
| --- | --- | --- | --- | --- | --- |
| H2BC13 | -1.39 | -1.04 | -1.79 | -1.33 | inactive |
| COQ6 | -0.27 | -0.51 | 0.12 | -0.44 | inactive |
| ZNF521 | 0.59 | 0.67 | 0.52 | 0.57 | inactive |
